Pooled drug test results. Numbers come from NIAID ChemDB, via PubChem.

Shared fields: whole-cell or culture tests; species: HIV-2

An empty or dashed field is not shown. Conditions beyond the fields shown may differ between rows. ECn is the concentration giving n% inhibition of infection, replication or growth.

| smiles | cells | measure | mutations | setting | strain or isolate | read by | value |
|---|---|---|---|---|---|---|---|
| CC(C)(C)OC(=O)N[C@@H](Cc1ccccc1)[C@H](O)CNC[C@@H](O)[C@H](Cc1ccccc1)NC(=O)C(C)(O)C(C)(C)C | CEM + CEM-SS | EC50 | - | - | CBL-20 | cytopathic effect / XTT | 0.16 µM |
| Cc1cn([C@H]2C[C@H](N=[N+]=[N-])[C@@H](CO)O2)c(=O)[nH]c1=O | PBMC | EC50 | - | - | ROD | RT activity | <0.03 µM |
| COc1ccc(CCNc2nc(NC(=S)Nc3ccc(Cl)cc3)nc(Oc3cc(=O)oc4ccccc34)n2)cc1OC | MT-4 | EC50 | - | - | ROD | MTT | >40.83 µg/mL |
| NS(=O)(=O)c1ccc(NC2=NS(=O)(=O)NC(Cc3ccccc3)=C2)cc1 | MT-4 | EC50 | - | - | ROD | MTT | >318 µM |
| COC(=O)C(Cc1ccccc1)NC(=O)[C@@H](NC(=O)[C@@H](C[C@H](O)[C@H](CC1CCCCC1)NC(=O)[C@@H](NC(=O)[C@H](Cc1ccccc1)CS(=O)(=O)C(C)(C)C)C(C)C)C(C)C)C(C)C | MT-4 | EC50 | - | - | EHO | cytopathic effect / MTT | 9 µM |
| O=[N+]([O-])c1ccc(-c2nnc(-c3cccnc3)o2)cc1 | MT-4 | EC50 | - | - | ROD | MTT | >73.5 µg/mL |
| COc1ccc2c(c1)COP(=O)(OC[C@H]1O[C@@H](n3cc(C)c(=O)[nH]c3=O)C[C@@H]1N=[N+]=[N-])O2 | CEM + CEM/O | EC50 | - | - | - | - | 0.021 µM |
| CC(C)[C@H](NC(=O)c1ccc2ccccc2n1)C(=O)N[C@@H](Cc1ccccc1)[C@H](O)CN1CC[C@@H](OCc2ccncc2)C[C@H]1C(=O)NC(C)(C)C | C8166 | EC50 | - | - | ROD | p24 | 0.03 µM |
| CC(C)=CCN1Cc2cccc3[nH]c(=S)n(c23)C[C@@H]1C | PBMC | EC90 | - | - | ROD | RT activity | >6.25 µM |
| CC1=C(C(=O)Nc2ccc(Cl)c(C(=O)OC(C)C)c2)SCCO1 | MT-2 | EC50 | - | - | NIH-D2 | - | >200 µM |
| Cc1cn([C@H]2C[C@H](N=[N+]=[N-])[C@@H](COP3(=O)OCc4cc(Cl)ccc4O3)O2)c(=O)[nH]c1=O | CEM + CEM/O | EC50 | - | - | - | - | 0.006 µM |
| Cc1cccc2c1OP(=O)(OC[C@@H]1C=C[C@H](n3cc(C)c(=O)[nH]c3=O)O1)OC2 | CEM | EC50 | - | - | - | - | 0.07 µM |
| Nc1ccn([C@H]2CC[C@@H](CO)O2)c(=O)n1 | U-937 | EC50 | - | - | LAV-2 | virus yield | <0.001 µM |
| Cc1cc(C#N)cc(C)c1Oc1ccc(N)c(NC2CCN(Cc3ccc(S(C)(=O)=O)cc3)CC2)n1 | MT-4 | EC50 | - | - | ROD | MTT | >28 µM |
| Cc1cn([C@H]2C[C@H](N=[N+]=[N-])[C@@H](CO)O2)c(=O)[nH]c1=O | PBMC | EC50 | - | clinical isolate | CDC310342 | cytopathic effect / XTT | 0.006 µM |
| CC(=O)Oc1ccc(COP(=O)(OCc2ccc(OC(C)=O)cc2)OC[C@@H]2C=C[C@H](n3cc(C)c(=O)[nH]c3=O)O2)cc1 | CEM + CEM TK- | EC50 | - | - | ROD | cytopathic effect / syncytia | 0.13 µM |
| Cc1cc(C)c(Oc2ccc(N)c(NC3CCN(Cc4ccncc4)CC3)n2)c(C)c1 | MT-4 | EC50 | - | - | ROD | MTT | >30 µM |
| O=S1(=O)N=C(Nc2ccc(F)c(F)c2F)C=C(Cc2ccc3ccccc3c2)N1 | MT-4 | EC50 | - | - | ROD | MTT | >143 µM |
| Cc1cn([C@H]2C=C[C@@H](COP(=O)(O[C@H](C)c3ccccc3)O[C@H](C)c3ccccc3)O2)c(=O)[nH]c1=O | CEM + CEM/O | EC50 | - | - | ROD | cytopathic effect / syncytia | 100 µM |
| COc1ccc(CCNc2nc(NC(=S)Nc3ccc(F)cc3)nc(Oc3cc(=O)oc4ccccc34)n2)cc1OC | MT-4 | EC50 | - | - | ROD | MTT | >14.55 µg/mL |
| Cc1cn([C@H]2C[C@H](N=[N+]=[N-])[C@@H](CO)O2)c(=O)[nH]c1=O | MT-4 | EC50 | - | - | ROD | cytopathic effect / MTT | 0.00062 µg/mL |
| CC(=O)c1ccc(CN2CCC(N=C3C=C(Cc4cccc5ccccc45)NS(=O)(=O)N3)CC2)cc1 | MT-4 | EC50 | - | - | ROD | MTT | >106 µM |
| Cc1cc(C)c(Oc2ccc(N)c(NC3CCN(Cc4ccc(C(N)=O)cc4)CC3)n2)c(C)c1 | MT-4 | EC50 | - | - | ROD | MTT | >26 µM |
| CC(C)CN(C[C@@H](O)[C@H](Cc1ccccc1)NC(=O)O[C@H]1CCOC1)S(=O)(=O)c1ccc(N)cc1 | MT-2 | EC50 | - | - | EHO Laboratory isolate | cytopathic effect / MTT | 0.53 µM |
| O=S1(=O)NC(Cc2cccc3ccccc23)=CC(=NC2CCN(Cc3c(Cl)cccc3Cl)CC2)N1 | MT-4 | EC50 | - | - | ROD | MTT | >54.73 µM |
| CCc1cc(NCc2nc3c(Cl)ccc(Cl)c3o2)c(=O)[nH]c1C | MT-4 | EC50 | RT-S102L | - | EHO | cytopathic effect / MTT | >71 µM |
| COc1cc(NC2=NS(=O)(=O)NC(Cc3ccc4ccccc4c3)=C2)cc(OC)c1OC | MT-4 | EC50 | - | - | ROD | MTT | >204 µM |
| Cc1cn([C@H]2C[C@H](N=[N+]=[N-])[C@@H](COC(=O)CCC(=O)OC[C@H]3O[C@@H]4O[C@H]5[C@H](O)[C@@H](O)[C@@H](O[C@H]6[C@H](O)[C@@H](O)[C@@H](O[C@H]7[C@H](O)[C@@H](O)[C@@H](O[C@H]8[C@H](O)[C@@H](O)[C@@H](O[C@H]9[C@H](O)[C@@H](O)[C@@H](O[C@H]%10[C@H](O)[C@@H](O)[C@@H](O[C@H]3[C@H](O)[C@H]4O)O[C@@H]%10CO)O[C@@H]9CO)O[C@@H]8CO)O[C@@H]7CO)O[C@@H]6CO)O[C@@H]5CO)O2)c(=O)[nH]c1=O | MT-4 | EC50 | - | - | ROD | cytopathic effect / MTT | 0.0953 µg/mL |
| Cc1ccc2c(c1)C(=Nc1ccc(S(=O)(=O)Nc3nc(C)cc(C)n3)cc1)C(=O)N2 | MT-4 | EC50 | - | - | ROD | cytopathic effect / MTT | >125 µg/mL |
| CNc1nc(Nc2c(C)cc(C)cc2C)nc(NC2CCN(Cc3ccc(C(N)=O)cc3)CC2)n1 | MT-4 | EC50 | - | - | ROD | MTT | >27.39 µM |
| O=c1[nH]cnc2c1ncn2[C@H]1CC[C@@H](CO)O1 | MT-4 | EC50 | - | - | ROD | cytopathic effect / MTT | 9.36 µg/mL |
| Cc1cc(C)c(Oc2ccc([N+](=O)[O-])c(NC3CCN(Cc4ccc(S(N)(=O)=O)cc4)CC3)n2)c(C)c1 | MT-4 | EC50 | - | - | ROD | MTT | >22 µM |
| COc1ccc(CCNc2nc(NC(=O)Nc3cccc(C)c3)nc(Oc3cc(=O)oc4ccccc34)n2)cc1OC | MT-4 | EC50 | - | - | ROD | MTT | >22.45 µg/mL |
| CC(=O)ON1COC[C@H]2O[C@@H](n3cc(C)c(=O)[nH]c3=O)C[C@@H]21 | CEM | EC50 | - | - | ROD | syncytia | >50 µg/mL |
| Cc1ccccc1CN1CCC(N=C2C=C(Cc3cccc4ccccc34)NS(=O)(=O)N2)CC1 | MT-4 | EC50 | - | - | ROD | MTT | >107 µM |
| COc1cccc2c1OP(=O)(OC[C@H]1O[C@@H](n3cc(C)c(=O)[nH]c3=O)C[C@@H]1N=[N+]=[N-])OC2 | CEM + CEM TK- | EC50 | - | - | - | - | >100 µM |
| Cc1ccc(NC2=NS(=O)(=O)NC(Cc3ccccc3)=C2)cc1Cl | MT-4 | EC50 | - | - | ROD | MTT | >175 µM |
| Cc1cn([C@H]2C[C@H](N=[N+]=[N-])[C@@H](CO)O2)c(=O)[nH]c1=O | PBMC | EC50 | - | - | D194 | RT activity | 0.011 µM |
| Cc1cn([C@H]2C[C@H](N=[N+]=[N-])[C@@H](CO)O2)c(=O)[nH]c1=O | CEM + CEM-SS | EC50 | - | - | ROD | cytopathic effect / XTT | 0.005 µM |
| C[C@H](Cn1cnc2c(N)ncnc21)OCP(=O)(O)O | MT-4 | EC50 | - | - | ROD | cytopathic effect / trypan blue | 4.9 µM |
| O=c1[nH]cnc2c1ncn2[C@H]1CC[C@@H](CO)O1 | MT-2 | EC50 | - | - | EHO Laboratory isolate | cytopathic effect / MTT | 2.8 µM |
| O=S1(=O)N=C(Nc2ccccc2)C=C(Cc2ccccc2)N1 | MT-4 | EC50 | - | - | ROD | MTT | >292 µM |
| Cc1cccc2c1OP(=O)(OC[C@H]1O[C@@H](n3cc(C)c(=O)[nH]c3=O)C[C@@H]1N=[N+]=[N-])OC2 | CEM + CEM/O | EC50 | - | - | - | - | 0.013 µM |
| Cc1cn([C@H]2C=C[C@@H](COP3(=O)OCc4cc(C(C)(C)C)cc(C(C)(C)C)c4O3)O2)c(=O)[nH]c1=O | CEM | EC50 | - | - | - | - | 1.2 µM |
| Cc1cc(C)c(Oc2ccc([N+](=O)[O-])c(NC3CCN(Cc4ccncc4)CC3)n2)c(C)c1 | MT-4 | EC50 | - | - | ROD | MTT | >279 µM |
| Nc1ncnc2c1ncn2CCOCP(=O)(O)O | CEM | EC50 | - | - | ROD | - | 6 µM |
| Cc1cn([C@H]2C=C[C@@H](COP(=O)(OCc3ccccc3)OCc3ccccc3)O2)c(=O)[nH]c1=O | CEM + CEM/O | EC50 | - | - | ROD | cytopathic effect / syncytia | 18.3 µM |
| O=S1(=O)NC(Cc2cccc3ccccc23)=CC(=NC2CCN(Cc3ccc(Br)cc3)CC2)N1 | MT-4 | EC50 | - | - | ROD | MTT | >83.78 µM |
| O=S1(=O)N=C(Nc2ccc(F)c(F)c2)C=C(Cc2ccccc2)N1 | MT-4 | EC50 | - | - | ROD | MTT | >250 µM |
| Nc1nc2c(ncn2CCOCP(=O)(O)O)c(=O)[nH]1 | MT-4 | EC50 | - | - | ROD | - | 0.24 µM |
| CCOCn1c(Cc2ccccc2)c(C(C)C)c(=O)[nH]c1=O | MT-4 | EC50 | - | - | ROD | cytopathic effect / MTT | 9.3 µM |
| Cc1cn([C@H]2C[C@H](N=[N+]=[N-])[C@@H](CO)O2)c(=O)[nH]c1=O | PBMC | EC50 | - | - | 1814 | ELISA | 0.007 µM |
| Cc1cc(C)nc(NS(=O)(=O)c2ccc(N=C3C(=O)Nc4ccccc43)cc2)n1 | MT-4 | EC50 | - | - | ROD | cytopathic effect / MTT | 41.5 µg/mL |
| COc1ccc(CN=C2C=C(Cc3ccc4ccccc4c3)NS(=O)(=O)N2)cc1 | MT-4 | EC50 | - | - | ROD | MTT | >148 µM |
| Cc1cc(C#N)cc(C)c1Oc1ccc(N)c(NC2CCN(Cc3ccncc3)CC2)n1 | MT-4 | EC50 | - | - | ROD | MTT | >31 µM |
| CC(=O)OC[C@H]1O[C@@H](n2cc(C)c(=O)[nH]c2=O)C[C@@H]1N(C)OC(C)=O | CEM | EC50 | - | - | ROD | syncytia | >250 µg/mL |
| Nc1ccn([C@H]2CC[C@@H](CO)O2)c(=O)n1 | MT-4 | EC50 | - | - | ROD | cytopathic effect / MTT | 0.03 µg/mL |
| Cc1cc(C)c(Oc2ccc(N)c(NC3CCN(Cc4ccc(S(N)(=O)=O)cc4)CC3)n2)c(C)c1 | MT-4 | EC50 | - | - | ROD | MTT | >26 µM |
| Cc1cn([C@H]2C=C[C@@H](COC(=O)CCNC(=O)C(=O)/C=C(\O)c3cccn3Cc3ccc(F)cc3)O2)c(=O)[nH]c1=O | PBMC | EC50 | - | - | D194 | RT activity | 4.4 µM |
| Cc1cn([C@H]2C=C[C@@H](CO)O2)c(=O)[nH]c1=O | CEM + CEM/O | EC50 | - | - | ROD | cytopathic effect / syncytia | 0.25 µM |
| Cc1cn([C@H]2C=C[C@@H](COC(=O)CCNC(=O)C(=O)/C=C(\O)c3cc(OCc4ccccc4)cc(OCc4ccccc4)c3)O2)c(=O)[nH]c1=O | PBMC | EC50 | - | - | D194 | RT activity | 5.9 µM |
| Nc1ccn([C@@H]2CS[C@H](CO)O2)c(=O)n1 | MT-2 | EC50 | - | - | EHO Laboratory isolate | cytopathic effect / MTT | 0.4 µM |
| C[C@@H](Cn1cnc2c(N)nc(N)nc21)OCP(=O)(O)O | MT-4 | EC50 | - | - | ROD | cytopathic effect / trypan blue | 7.9 µM |

Repeating the final 4 entries:

{"smiles": "Cc1cn([C@H]2C=C[C@@H](CO)O2)c(=O)[nH]c1=O", "cells": "CEM + CEM/O", "measure": "EC50", "strain or isolate": "ROD", "read by": "cytopathic effect / syncytia", "value": "0.25 µM"}
{"smiles": "Cc1cn([C@H]2C=C[C@@H](COC(=O)CCNC(=O)C(=O)/C=C(\\O)c3cc(OCc4ccccc4)cc(OCc4ccccc4)c3)O2)c(=O)[nH]c1=O", "cells": "PBMC", "measure": "EC50", "strain or isolate": "D194", "read by": "RT activity", "value": "5.9 µM"}
{"smiles": "Nc1ccn([C@@H]2CS[C@H](CO)O2)c(=O)n1", "cells": "MT-2", "measure": "EC50", "strain or isolate": "EHO Laboratory isolate", "read by": "cytopathic effect / MTT", "value": "0.4 µM"}
{"smiles": "C[C@@H](Cn1cnc2c(N)nc(N)nc21)OCP(=O)(O)O", "cells": "MT-4", "measure": "EC50", "strain or isolate": "ROD", "read by": "cytopathic effect / trypan blue", "value": "7.9 µM"}